# Primary screen of a compound library

From ChEMBL document CHEMBL3988442, “University of Dundee, Small-Polar-MMV Screening Library” (2021).

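Whole-cell growth test on Mycobacterium tuberculosis, read after 4 days in a medium based on cholesterol and the lipid DPPC; the read-out is not stated. Concentration: 500 µM. Direction is inferred from retests: higher values go with more growth inhibition. About 18,000 compounds were tested under these conditions; 5% (about 900) showed 50% or more at least once.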

Each number is a percent effect as filed.
The controls that fix the scale are not given in the record; negative values are as filed.
The entries come from a sample that favours strong results.

compound | percent effect
COc1cccc(NC(=O)C2CCCN(C)C2)c1 (stereo not shown) | 17.05
CCN(CC)CCNC(=O)Nc1ccc2cn[nH]c2c1 | -2.007
Cc1cc(C(=O)N[C@@H]2CCOC[C@H]2O)c(C)n1C | -35.27
CCc1noc(C)c1C(=O)N1CCCN(C)CC1 | 4.531
Cc1ccc(CCN2CCN(S(N)(=O)=O)CC2)cc1 | 4.038
CS(=O)(=O)Nc1ccccc1CNC(=O)c1ccoc1 | -0.866
CC(C)Cc1ccc(CS(=O)(=O)CCO)cc1 | 80.52
CC(N)C(=O)Nc1nc(-c2ccc(O)cc2)cs1 (stereo not shown) | 11.65
CC(C)Oc1ccc(C(O)CN)cc1 (stereo not shown) | 19.29
CCS(=O)(=O)NCCNCc1cccc(Cl)c1F | 4.748
NS(=O)(=O)N1CCN(Cc2cc3ccccc3s2)CC1 | 3.244
N#Cc1ccccc1CN1CCCC1CO (stereo not shown) | 78.05
c1ccc(CN2CCCN(c3ccccn3)CC2)nc1 | 63.81
COc1ccc(C(N)CO)c2ccccc12 (stereo not shown) | 55.94
COc1cc(C(=O)NC(C)CCO)ccc1OC(C)C (stereo not shown) | -2.519
CCOC(=O)c1cnn(-c2ccc(Br)cn2)c1N | -18.43
O=C(Cn1ccc(C(F)(F)F)n1)Nc1ccccn1 | 24.85
COC(=O)NCCc1ccccc1OC | 29.36
O=S(=O)(N1CCCCCC1)N1CCNCC1 | -0.8557
CCN(Cc1cc(C)n[nH]1)CC1CCCO1 (stereo not shown) | 9.33
CCC1CCCCN1CCC(=O)NC(N)=O (stereo not shown) | -8.569
CN1CCN(c2ccnc(SCC(N)=O)n2)CC1 | 95.45
CCOc1ccc2cc(S(=O)(=O)NCCO)ccc2c1 | 111.5
CC1(C)CN(CC2CCCCO2)CCO1 (stereo not shown) | 0.65
CN(C(=O)C(CN)c1ccccc1)c1cccc(F)c1 (stereo not shown) | 0.07145
O=C(NCCN1CC=CC1)c1c(O)cc(F)cc1F | 25.75
CC1CC(=O)NCCN1 (stereo not shown) | 12.51
COc1ccc(CN)c(F)c1 | -4.1
CN(C)C1(CNC(=O)Cc2cccnc2)CCOCC1 | -6.103
O=C(CSc1ccncc1)NCCn1cccc1 | 15.84
CN(C(=O)CSc1nnc(N)s1)C1CCS(=O)(=O)C1 (stereo not shown) | -8.718
COC1(CN)CCOC1 (stereo not shown) | 2.462
CS(=O)(=O)N(c1ccc(OCCN)cc1)S(C)(=O)=O | 4.704
CC1CCN(c2ccc(N)cn2)CC1 | 8.153
COC(=O)c1cccc(NC(=O)NC[C@@H]2CCCN2)c1 | -1.86
CN(C)CCOc1ccc(NS(C)(=O)=O)cc1Cl | -18.47
N#CCCCn1nnc(-c2ccccc2)n1 | 71.66
Cc1noc(C)c1CN(CCO)C1CC1 | 9.193
COc1cc(NC(=O)N2CCCC(N)C2)ccc1C (stereo not shown) | 31.85
Cc1cc(C(=O)NCc2ccnc(N(C)C)c2)no1 | 2.009
O=C(c1cc(Br)c[nH]1)N1CCN2CCCCC2C1 (stereo not shown) | 66.85
COCCCNC(=O)c1ccc(NC(C)=O)cc1 | -14.61
CC(=O)c1ccn(C)n1 | 10.88
CNC(=O)NC(=O)CSc1nnc(-c2ccccc2)o1 | -10.16
COc1cc(F)c(C(=O)N2CCC(OC)C2)c(F)c1 (stereo not shown) | 2.235
O=C(N1CCCC(O)C1)C1(O)Cc2ccccc2C1 (stereo not shown) | 8.018
CCn1ncnc1CN1CCCCC1c1ccccn1 (stereo not shown) | 8.516
CN1C(=O)C(N)Cc2ccccc21 (stereo not shown) | -36.79
O=C(CNC1CC1)NC[C@H]1CCc2ccccc2O1 | 54.65
CC(C)(C)OC(=O)N1CCOCC1 | -0.6499
CCCc1nccn1CCN1CCCS1(=O)=O | -2.84
CN(C1CCCC1)S(=O)(=O)NCCNc1ccccn1 | 79.93
Cc1cc(Br)cc2cc(C(=O)NC(C)(CO)CO)oc12 | 54.59
CC(=O)Nc1nc(COc2ccc(C)cn2)cs1 | 82.97
CCNC(=O)C(CCSC)NC(=O)Cc1ccccc1 (stereo not shown) | -6.496
CCOc1ncc(C(=O)N(C)C)cc1Cl | -5.732
O=C(NC1CC1)c1cc(-c2cccs2)on1 | 28.69
CC(=O)NCCCC(=O)N(C)Cc1nccs1 | 0.09079
CSCc1noc(CN2CC[C@@](C)(O)[C@@H](O)C2)n1 | -1.066
CCC(C)(CC)NC(=O)NC1CC1 | 7.975
NCc1ccc(Cl)cn1 | 91.35
CC(C)(C)OC(=O)c1cncc(N)c1 | 2.29
CNC(=O)CCC(C)(C)NC(=O)c1ccc(COC)s1 | -0.6443
NCC(=O)Nc1ccc2c(c1)OCCO2 | 8.716
Cc1nc(CN(C)C(=O)[C@H]2CCC[C@H](O)C2)no1 | -29.74
NC1CCN(c2ncc(C(F)(F)F)cc2Cl)C1 (stereo not shown) | 89.21
O=C1CC(C(=O)NCCNC(=O)c2ccccc2)CN1 (stereo not shown) | -8.857
CCN1CCN(CC(=O)Nc2cc(C)cc(C)c2)CC1 | 32.96
COc1ccc(NC(=O)NCCN2CCOCC2)cc1 | -0.1624
CNC(=O)c1cccc(CN(CC(C)(C)O)C(C)C)c1 | 5.546
CCOc1cccc(CS(=O)(=O)Cc2ccnn2C)n1 | -10.94
NCCCn1cc(Cl)cn1 | 19.84
CC(C)(C)CCC(N)c1ncc[nH]1 (stereo not shown) | 11.83
Cc1noc(C(O)c2ccccc2)n1 (stereo not shown) | 8.6
CNC(=O)C1CCN(C(=O)Nc2ccc(C)c(Cl)c2)C1 (stereo not shown) | 7.716
CN(Cc1nnc2n1CCC2)C(=O)c1ccccc1 | -9.488

The first 8 entries again:

compound	percent effect
COc1cccc(NC(=O)C2CCCN(C)C2)c1 (stereo not shown)	17.05
CCN(CC)CCNC(=O)Nc1ccc2cn[nH]c2c1	-2.007
Cc1cc(C(=O)N[C@@H]2CCOC[C@H]2O)c(C)n1C	-35.27
CCc1noc(C)c1C(=O)N1CCCN(C)CC1	4.531
Cc1ccc(CCN2CCN(S(N)(=O)=O)CC2)cc1	4.038
CS(=O)(=O)Nc1ccccc1CNC(=O)c1ccoc1	-0.866
CC(C)Cc1ccc(CS(=O)(=O)CCO)cc1	80.52
CC(N)C(=O)Nc1nc(-c2ccc(O)cc2)cs1 (stereo not shown)	11.65